Publication PMC12391581 (Antiviral Research, 2025)
Like-named read-outs stand apart in the source and are kept apart here.

Tests used:
[1] = tested on: neuraminidase (NA) of B/Victoria-lineage viruses; settings: cited from earlier work
[2] = tested on: neuraminidase (NA) of B/Victoria-lineage viruses; test: Fluorescence-based NA inhibition assay (MUNANA substrate); format: biochemical, influenza B/Victoria-lineage virus; settings: for Fold-change in IC50: WHO CC London
[3] = tested on: neuraminidase (NA) of A(H3N2) viruses; settings: N2 deletions at NA-245-248 and NA-247-250; ref Abed et al., 2009; Tamura et al., 2015; cited from earlier work
[4] = influenza B NA-D197E, previously associated, ref Burnham et al., 2014, Hurt et al., 2006, Monto et al.
[5] = influenza B NA-D197N, previously associated, ref NA marker tables

Compound | NAI inhibition phenotype (NI/RI/HRI) [1, 4] | NAI inhibition phenotype (NI/RI/HRI) [1, 5] | Fold-change in IC50 ([2]; B/Bulgaria/1896/2023, no NA substitution) [fold] | Fold-change in IC50 ([2]; B/Catalonia/2279261NS/2023, no NA substitution) [fold] | Fold-change in IC50 ([2]; B/Catalonia/3511044NS/2022, no NA substitution) [fold] | Fold-change in IC50 ([2]; B/Netherlands/10195/2023, no NA substitution) [fold] | Fold-change in IC50 ([2]; B/Netherlands/10258/2023, no NA substitution) [fold] | Fold-change in IC50 ([2]; B/Slovenia/732/2023, no NA substitution) [fold] | IC50 fold-change compared to reference median IC50 values ([2]; B/Victoria-lineage viruses with no known NA marker, n=6, Europe 2022–2023) | NAI inhibition phenotype (NI/RI/HRI) [3] | NAI inhibition phenotype (NI/RI/HRI) ([1]; B/Victoria-lineage NA-K360E, previously exhibiting, ref WHO-AVWG NA marker table)
CCOC(=O)C1=C[C@@H](OC(CC)CC)[C@H](NC(C)=O)[C@@H](N)C1 [Oseltamivir, oseltamivir] | RI (RI is a 5- to 50-fold increase) | NI/RI | 1.22 | 1.07 | 0.77 | 1.80 | 1.26 | 1.85 | 0.77–1.85 fold | HRI (HRI is a >100-fold increase) | –
peramivir | RI (RI is a 5- to 50-fold increase) | NI/RI | – | – | – | – | – | – | – | – | HRI (HRI is a >50-fold increase)
